Construct, isoform or probe ends are uncertain for at least one entry. Weaker means in comparison with the reference protein, sequence or condition of that experiment. Where a protein sequence is shown, tags need not be part of it.
Biological target: T1, rAB-Elavl (UniProt D0CAL6)
T1 sequence (looked up, limits assumed): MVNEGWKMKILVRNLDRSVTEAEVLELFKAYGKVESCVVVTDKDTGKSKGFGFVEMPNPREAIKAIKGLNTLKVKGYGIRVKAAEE
Test: EMSA
Settings: 40-160 nM protein, 2.5 nM probe, shifted band not clearly visible, free RNA decreases; AlphaScreen: 25 mM HEPES pH 7.4, 100 mM NaCl, 0.1% BSA, RT; REMSA: 20 mM HEPES pH 7.5, 50 mM KCl, 450 uM BSA, 0.25% glycerol, RT (gel at 4 C); recombinant protein; protein details: C-terminal 6xHis; label: DY681

ACCACCCACCACCCACCCACCACCCA [IR-ARE neg]
binding result: binds more weakly
